In patent US20060165722A1 (priority 2005, published 2006):

System: tetanus toxin
Assay: Survival of intranasally immunized mice to Tetanus Toxin challenge
Assay type: in vivo
Details: s.c. challenge 2 months after four weekly intranasal doses

Tetanus toxoid
protection against tetanus toxin challenge (paralysis and death): not protected
